Compound potency records, mixed from different reports. Data source: NIAID ChemDB in PubChem.

Common to all: growth or infection tests; organism: HIV-1

Rows are shuffled and stem from different studies.

structure,method,measure,strain,cells,value
[N-]=[N+]=NCC(CO)OCn1ccc(=O)[nH]c1=O,p24,EC50,-,MT-4,>1000 µM
Cc1ncc(-c2ccc3c(c2)CCN(c2nccc(-c4cnccn4)n2)C3)c(N2CCC(C)(C)CC2)c1[C@H](OC(C)(C)C)C(=O)O,luciferase,EC50,NL4-3,MT-2,0.002 µM
CC(C)C1=C2[C@H]3CC[C@@H]4[C@@]5(C)CC[C@H](OC(=O)[C@H]6C[C@@H](C(=O)O)C6(C)C)C(C)(C)[C@@H]5CC[C@@]4(C)[C@]3(C)CC[C@@]2([C@@H](O)CNC(=O)C(C)(C)NC(=O)c2ccc(N3CCC(O)CC3)cc2)CC1=O,p24 / ELISA,EC50,92HT599,MT-2,<1 µM
OC[C@@H]1OC[C@H](On2cnc3c(Cl)ncnc32)O1,-,EC50,-,MT-4,>100 µg/mL
Cc1ccc(Cn2c(=O)ccn(CC#N)c2=O)cc1,cytopathic effect,EC50,IIIB,PBMC,94.8 µM
O=[N+]([O-])c1ccc(/C=C/c2ccc(N=Nc3ccc(/C=C/c4ccc([N+](=O)[O-])cc4S(=O)(=O)O)c(S(=O)(=O)O)c3)cc2S(=O)(=O)O)c(S(=O)(=O)O)c1,-,EC50,LAV,PBMC,0.002 µM
Cc1nc2c(c(C)c(C)n2Cc2cncs2)c(-c2ccc(Cl)cc2)c1[C@H](OC(C)(C)C)C(=O)O,MTT,EC50,IIIB,MT-4,0.009 µM
CC(C)C1=C2[C@H]3CC[C@@H]4[C@@]5(C)CC[C@H](OC(=O)[C@H]6C[C@@H](C(=O)O)C6(C)C)C(C)(C)[C@@H]5CC[C@@]4(C)[C@]3(C)CC[C@@]2([C@@H](O)CNCC(C)(C)NC(=O)c2ccc(Cl)cc2OCCN2CCCC2)CC1=O,p24 / ELISA,EC50,92HT599,MT-2,<1 µM
Cc1nc(N)c(-c2ccc3c(c2)CCN(c2nccc(-c4cnccn4)n2)C3)c(N2CCC(C)(C)CC2)c1[C@H](OC(C)(C)C)C(=O)O,luciferase,EC50,NL4-3,MT-2,0.003 µM
Nc1nc2c(ncn2[C@H]2CO[C@@H](CO)O2)c(=O)[nH]1,RT activity,EC50,LAI,PBMC,0.4 µM
[2H]C(CCCCN)(CNC(=O)C[C@@]12CC[C@]3(C)[C@H](CC[C@@H]4[C@@]5(C)CC[C@H](OC(=O)[C@H]6C[C@@H](C(=O)O)C6(C)C)C(C)(C)[C@@H]5CC[C@]43C)C1=C(C(C)C)C(=O)C2)NC(=O)c1ccc(Cl)cc1,p24 / ELISA,EC50,92HT599,MT-2,<1 µM
CCOC(=O)[C@H](C)NP(=O)(OC[C@@H]1OC[C@H](n2cnc3c(=O)[nH]c(N)nc32)O1)Oc1ccccc1,RT activity,EC50,LAI,PBMC,0.4 µM
Cc1cc(C)cc(Cn2c(=O)ccn(Cc3ccccc3)c2=O)c1,cytopathic effect,EC50,IIIB,PBMC,0.234 µM
COC(=O)/C=C1/[C@@H](O[Si](C)(C)C(C)(C)C)[C@H](n2ccc(=O)[nH]c2=O)O[C@@H]1CO[Si](C)(C)C(C)(C)C,cytopathic effect / trypan blue,EC50,IIIB,MT-4,>2 µM
c1ccc(COC[C@H]2O[C@H](O[C@H]3[C@H](OCc4ccccc4)[C@H](OCc4ccccc4)[C@@H]4OC[C@H]3O4)[C@H](OCc3ccccc3)[C@@H](OCc3ccccc3)[C@H]2OCc2ccccc2)cc1,MTT,EC50,IIIB,-,0.23 µg/mL
CC1OC(OCC2OC(Oc3c(-c4cc(O)c(O)c(O)c4)oc4cc(O)cc(O)c4c3=O)C(O)C(O)C2O)C(O)C(O)C1O,p24 / ELISA,EC50,IIIB,MT-4,45 µM
COc1cc(C(OC(=O)c2ccc3c(c2)OCO3)[C@H](C)C(C)O)cc(O)c1OC,-,EC50,-,C8166,3.18 µg/mL
COc1ncnc2c1ncn2O[C@@H]1CS[C@@H](CO)O1,-,EC50,-,MT-4,>100 µg/mL
Cc1cc(C)cc(Cn2c(=O)ccn(CC#N)c2=O)c1,cytopathic effect,EC50,IIIB,PBMC,0.59 µM
Cc1nc(Cl)c([C@H](OC(C)(C)C)C(=O)O)c(N2CCC(C)(C)CC2)c1-c1ccc2c(c1)CCN(c1ncnc3c1oc1ncccc13)C2,luciferase,EC50,NL4-3,MT-2,0.0006 µM
Cc1nc2c(c(C)c(C)n2Cc2ccn(C)n2)c(-c2ccc(Cl)cc2)c1[C@H](OC(C)(C)C)C(=O)O,MTT,EC50,IIIB,MT-4,0.008 µM
Cc1ccnc(SC(F)(F)c2nc3ccccc3o2)n1,cytopathic effect / XTT,EC50,RF,CEM + CEM-SS,0.0646 µM
Cc1nc2ccc(C(=O)NCC[C@@]34CC[C@]5(C)[C@H](CC[C@@H]6[C@@]7(C)CC[C@H](OC(=O)[C@H]8C[C@@H](C(=O)O)C8(C)C)C(C)(C)[C@@H]7CC[C@]65C)C3=C(C(C)C)C(=O)C4)cc2[nH]1,p24 / ELISA,EC50,92HT599,MT-2,<1 µM
Cc1cn([C@@H]2O[C@H](CO[Si](C)(C)C(C)(C)C)C3(O[C@H]3C(=O)NO)[C@H]2O[Si](C)(C)C(C)(C)C)c(=O)[nH]c1=O,cytopathic effect / trypan blue,EC50,IIIB,MT-4,>2 µM
Cc1cc(C)cc(Cn2c(=O)ccn(Cc3c(F)cccc3F)c2=O)c1,cytopathic effect,EC50,IIIB,PBMC,0.115 µM
CC(C)(C)[Si](C)(C)OC[C@H]1O[C@@H](n2ccc(=O)[nH]c2=O)[C@H](O[Si](C)(C)C(C)(C)C)[C@]12O[C@@H]2CO,cytopathic effect / trypan blue,EC50,IIIB,MT-4,>10 µM
CN(C[C@@H](CCN1CCC2(CC1)CS(=O)c1ccccc12)c1ccc(Cl)c(Cl)c1)S(=O)(=O)c1ccccc1,p24,EC50,YU-2 R5 strain,PBMC,<6 µM
Cc1ccnc(SCc2nc3ccccc3o2)n1,cytopathic effect / XTT,EC50,RF,CEM + CEM-SS,53.3 µM
CC(C)(C)[Si](C)(C)OC[C@H]1O[C@@H](n2ccc(=O)[nH]c2=O)[C@H](O[Si](C)(C)C(C)(C)C)[C@@]12O[C@H]2C(=O)NN,cytopathic effect / trypan blue,EC50,IIIB,MT-4,>2 µM
COc1cc(Cn2c(=O)ccn(CC#N)c2=O)cc(OC)c1,cytopathic effect,EC50,IIIB,PBMC,5.64 µM
Nc1ncnc2c1ncn2O[C@H]1CS[C@@H](CO)O1,-,EC50,-,MT-4,>100 µg/mL
COC(O)[C@@H]1OC12[C@@H](CO[Si](C)(C)C(C)(C)C)O[C@@H](n1cc(C)c(=O)[nH]c1=O)[C@@H]2O[Si](C)(C)C(C)(C)C,cytopathic effect / trypan blue,EC50,IIIB,MT-4,>10 µM
CC(C)C1=C2[C@H]3CC[C@@H]4[C@@]5(C)CC[C@H](OC(=O)[C@H]6C[C@@H](C(=O)O)C6(C)C)C(C)(C)[C@@H]5CC[C@@]4(C)[C@]3(C)CC[C@@]2([C@@H](O)CNC(=O)C(C)(CCN)NC(=O)c2ccc(Cl)cc2)CC1=O,p24 / ELISA,EC50,92HT599,MT-2,<1 µM
[N-]=[N+]=NCC(CO)OCn1nc(Cc2ccccc2)c(=O)[nH]c1=O,p24,EC50,-,MT-4,>1000 µM
Cc1cn([C@@H]2O[C@H](CO[Si](C)(C)C(C)(C)C)C3(O[C@H]3C(=O)NN)[C@H]2O[Si](C)(C)C(C)(C)C)c(=O)[nH]c1=O,cytopathic effect / trypan blue,EC50,IIIB,MT-4,>10 µM
CC(C)C1=C2[C@H]3CC[C@@H]4[C@@]5(C)CC[C@H](OC(=O)[C@H]6C[C@@H](C(=O)O)C6(C)C)C(C)(C)[C@@H]5CC[C@@]4(C)[C@]3(C)CC[C@@]2(CCNCc2ccc(F)cc2)CC1=O,p24 / ELISA,EC50,92HT599,MT-2,<1 µM
OC[C@H]1O[C@@H](On2cnc3c(Cl)ncnc32)CS1,-,EC50,-,MT-4,>100 µg/mL
CCOC(=O)[C@H](C)NP(=O)(OC[C@@H]1OC[C@H](n2cnc3c(Cl)nc(N)nc32)O1)Oc1ccccc1,RT activity,EC90,LAI,PBMC,0.02 µM
Cc1cccc(Cn2c(C)c(C)c3c(-c4ccc(Cl)cc4)c(C(OC(C)(C)C)C(=O)O)c(C)nc32)n1,MTT,EC50,IIIB,MT-4,0.125 µM
Cc1cc(O)c(C)c(C(=O)N[C@@H](Cc2cccc(F)c2)[C@H](O)C(=O)N2CC(F)(F)C(C)(C)[C@H]2C(=O)NCC(C)(C)C)c1,-,EC50,-,-,0.0088 µM
COc1ncnc2c1ncn2O[C@@H]1CO[C@@H](CO)O1,-,EC50,-,MT-4,>100 µg/mL
[N-]=[N+]=NCC(CO)OCn1ncc(=O)[nH]c1=O,p24,EC50,-,MT-4,>1000 µM
O=c1[nH]cnc2c1ncn2O[C@H]1CS[C@@H](CO)O1,-,EC50,-,MT-4,>10 µg/mL
CCCCn1c(C)c(C)c2c(-c3ccc(Cl)cc3)c(C(OC(C)(C)C)C(=O)O)c(C)nc21,MTT,EC50,IIIB,MT-4,0.016 µM

For reference, 4 entries again:

structure | method | measure | strain | cells | value
O=[N+]([O-])c1ccc(/C=C/c2ccc(N=Nc3ccc(/C=C/c4ccc([N+](=O)[O-])cc4S(=O)(=O)O)c(S(=O)(=O)O)c3)cc2S(=O)(=O)O)c(S(=O)(=O)O)c1 | - | EC50 | LAV | PBMC | 0.002 µM
Cc1cn([C@@H]2O[C@H](CO[Si](C)(C)C(C)(C)C)C3(O[C@H]3C(=O)NN)[C@H]2O[Si](C)(C)C(C)(C)C)c(=O)[nH]c1=O | cytopathic effect / trypan blue | EC50 | IIIB | MT-4 | >10 µM
Cc1ccc(Cn2c(=O)ccn(CC#N)c2=O)cc1 | cytopathic effect | EC50 | IIIB | PBMC | 94.8 µM
Nc1nc2c(ncn2[C@H]2CO[C@@H](CO)O2)c(=O)[nH]1 | RT activity | EC50 | LAI | PBMC | 0.4 µM

Blank or dashed fields: not listed here. ECn is the concentration giving n% inhibition of infection, replication or growth.